Data published in paper PMC12047801, “Disrupting the OTUD4-USP7 deubiquitinase complex to suppress herpesvirus replication: a novel antiviral strategy” (PLOS Pathogens, 2025).

System: KSHV proteins RTA, ORF45, K8α, and ORF57 in SLK.iBAC-GFP cells
Test: Viral protein levels by immunoblotting, SLK.iBAC-GFP cells
Settings: S2G Fig, 100 μM

Compound: CC(=O)N[C@@H](Cc1ccc(O)cc1)C(=O)NCC(=O)N[C@@H](CCCNC(=N)N)C(=O)N[C@@H](CCCCN)C(=O)N[C@@H](CCCCN)C(=O)N[C@@H](CCCNC(=N)N)C(=O)N[C@@H](CCCNC(=N)N)C(=O)N[C@@H](CCC(N)=O)C(=O)N[C@@H](CCCNC(=N)N)C(=O)N[C@@H](CCCNC(=N)N)C(=O)N[C@@H](CCCNC(=N)N)C(=O)NCC(=O)NCC(=O)N[C@H](C(=O)N[C@@H](CC(N)=O)C(=O)N[C@@H](CCC(N)=O)C(=O)N[C@@H](CO)C(=O)N[C@@H](C)C(=O)N[C@@H](CO)C(=O)N[C@@H](CCC(N)=O)C(=O)N[C@@H](CO)C(=O)N[C@@H](CO)C(=O)N[C@@H](CC(N)=O)C(N)=O)C(C)C
- Protein levels of RTA, ORF45, K8α, and ORF57 (in words): diminished
